Test system: lungs of rats
Assay: Histological investigation of the lung after intratracheal instillation
Type: in vivo, rat

**Q.** With “S-[2,3-bispalmitoyloxy-(2R)-propyl]cysteinyl-GNNDESNISFKEK (N-terminal S-(2,3-bispalmitoyloxy-2R-propyl)cysteine) [2R-MALP-2]” as the substance, how does the lung histology (2.5 μg intratracheal) read?
**A.** Its lung histology is “mild inflammation”.

**Q.** And the lung histology (25 μg intratracheal, three days after instillation)?
**A.** The lung histology was “multifocal, pneumonia-like infiltration consisting of neutrophils and mononuclear cells”.
